A mixed list of measured activities; the numbers were collected in NIAID ChemDB.

Shared fields: enzyme or target tests; organism: HIV-1; protein: Reverse transcriptase; read-out: fold resistance

Blank or dashed fields: not listed here.

compound,strain,mutations,read by,result
CCN1c2ncc(CCOc3ccc(C(=O)N=c4ccccn4O)cc3C)cc2C(=O)N(C)c2cccnc21,IIIB,RT-K103N Y181C,nucleotide incorporation / radiometric,1
CCN1c2ncc(CCOc3ccc(C(=O)O)c4ccccc34)cc2C(=O)Nc2c(C)ccnc21,,RT-Y188L,nucleotide incorporation / radiometric,>10
CCc1ccc(-n2c(Br)nnc2SCC(=O)Nc2ccc(C(=O)O)cc2C)c2ccccc12,,RT-Y188L,nucleotide incorporation / radiometric,>2
CCN1c2ncc(CCOc3ccc(CC(C)C(=O)O)c4ccccc34)cc2C(=O)N(C)c2ccc(C)nc21,,RT-V106A,nucleotide incorporation / radiometric,>10
CCc1ccc(-n2c(Br)nnc2SCC(=O)Nc2ccc(C(=O)O)cc2C)c2ccccc12,,RT-Y181C,nucleotide incorporation / radiometric,>1
CCc1ccc(-n2c(SCC(=O)Nc3ccc(S(N)(=O)=O)cc3Cl)nnc2C(F)F)c2c1CCCC2,,RT-Y188L,nucleotide incorporation / radiometric,>2
Cc1cc(C)cc(S(=O)(=O)c2c(C(=O)NC(C)C(N)=O)[nH]c3ccc(Cl)cc23)c1,,RT-K103N,nucleotide incorporation / radiometric,166.6
CCc1ccc(-n2c(SCC(=O)Nc3ccc(C(=O)O)cc3Cl)nnc2C(F)(F)F)c2ccccc12,,RT-Y188L,nucleotide incorporation / radiometric,>2
CCc1cc(CCc2nc3ccccc3o2)c(=O)[nH]c1C,,RT-K103N Y188C,nucleotide incorporation,>1000
CCN1c2ncc(CCOc3ccc(-c4cccnc4C)cc3C)cc2C(=O)N(C)c2cccnc21,IIIB,RT-K103N Y181C,nucleotide incorporation / radiometric,1
CCc1ccc(-n2c(Br)nnc2SCC(=O)Nc2ccc(C(=O)NCC(C)O)cc2Cl)c2ccccc12,,RT-Y188L,nucleotide incorporation / radiometric,>1
Cc1cc(C2CC2)c2ccccc2c1-n1c(Br)nnc1SCC(=O)Nc1ccc(C(=O)O)cc1Cl,,RT-Y188L,nucleotide incorporation / radiometric,>2
CCOC(=O)CNC(=O)c1ccc(NC(=O)CSc2nnc(Br)n2-c2ccc(C3CC3)c3ccccc23)c(Cl)c1,,RT-Y181C,nucleotide incorporation / radiometric,>1
Cc1occc1C(=S)Nc1ccc(Cl)c(/C=N/OC(C)(C)C)c1,,RT-Y188H,nucleotide incorporation / radiometric,1.31
NS(=O)(=O)c1ccc(NC(=O)CSc2nnc(C(F)F)n2-c2ccc(C3CCC3)c3ccccc23)c(Cl)c1,,RT-Y188L,nucleotide incorporation / radiometric,>1
CCN1c2ncc(CCOc3ccc(CCC(=O)O)c4ccccc34)cc2C(=O)Nc2c(C)cc(F)nc21,,RT-Y188L,nucleotide incorporation / radiometric,>10
CC(C)=CCN1Cc2cccc3[nH]c(=S)n(c23)C[C@@H]1C,,RT-Y181I,nucleotide incorporation,262
CC[C@H](C)[C@H](NC(=O)c1ccc(NC(=O)CSc2nnc(Br)n2-c2ccc(C3CC3)c3ccccc23)c(Cl)c1)C(=O)O,,RT-Y181C,nucleotide incorporation / radiometric,>1
CCc1ccc(-n2c(Br)nnc2SCC(=O)Nc2ccc(C(=O)O)cc2Cl)c2ccccc12,,RT-Y188L,nucleotide incorporation / radiometric,>2
CC(C)=CCOc1cc(NC(=S)c2ccsc2C)ccc1Cl,,RT-K103N,,50
O=c1cc(Cc2ccccc2)nc(NCCCCO)[nH]1,,RT-K103N,,2.05
CCN1c2ncc(CCOc3ccc(-c4ccc(CC(=O)O)cc4)cc3C)cc2C(=O)Nc2c(C)ccnc21,IIIB,RT-K103N Y181C,nucleotide incorporation / radiometric,1
NS(=O)(=O)c1ccc(NC(=O)CSc2nnc(C(F)F)n2-c2ccc3c4c(cccc24)CC3)c(Cl)c1,,RT-Y188L,nucleotide incorporation / radiometric,>2
COC(=O)[C@H](CC(C)C)NC(=O)c1ccc(NC(=O)CSc2nnc(Br)n2-c2ccc(C3CC3)c3ccccc23)c(Cl)c1,,RT-Y188L,nucleotide incorporation / radiometric,>1
CCN1c2ncccc2NC(=O)c2cc(CCOc3ccc(-c4cc(OC)c(O)c(C(=O)O)c4)cc3C)cnc21,IIIB,RT-K103N Y181C,nucleotide incorporation / radiometric,1
CCN1c2ncc(CCOc3cccc4c3ccc[n+]4[O-])cc2C(=O)N(C)c2ccc(Cl)nc21,RT -K103N,RT-K103N,nucleotide incorporation / radiometric,5.1
Cc1cc(C)cc(S(=O)(=O)c2c(C(N)=O)[nH]c3ccc(Cl)cc23)c1,,RT-L100I,nucleotide incorporation / radiometric,20
COc1ccc2c(C)ccc(-n3c(Br)nnc3SCC(=O)Nc3ccc(S(N)(=O)=O)cc3Br)c2c1,,RT-Y188L,nucleotide incorporation / radiometric,>1
O=C(CSc1nnc(Br)n1-c1ccc(C2CC2)cc1C(F)(F)F)Nc1ccc(C(=O)O)cc1Cl,,RT-Y188L,nucleotide incorporation / radiometric,>2
O=C(CSc1nnc(C(F)F)n1-c1ccc(C2CC2)c2ccccc12)Nc1ccc(C(=O)O)cc1Cl,,RT-Y188L,nucleotide incorporation / radiometric,>2
Cc1c(Cc2ccccc2)nc(SCCCCO)[nH]c1=O,,RT-Y181I,,8.26
CC(Sc1nnc(Br)n1-c1ccc(C2CC2)c2ccccc12)C(=O)Nc1ccc(S(N)(=O)=O)cc1Cl,,RT-Y181C,nucleotide incorporation / radiometric,>1
CCN1c2ncc(CCOc3ccc(C(=O)Nc4ccc(C(=O)O)cc4)cc3C)cc2C(=O)Nc2c(C)ccnc21,IIIB,RT-K103N Y181C,nucleotide incorporation / radiometric,1
CCN1c2ncc(CCOc3ccc(CC(C)C(=O)O)c4ccccc34)cc2C(=O)Nc2c(C)ccnc21,,RT-V106A,nucleotide incorporation / radiometric,>10
O=C(CSc1nnc(Br)n1-c1ccc(C2CC2)c2ccccc12)Nc1ccc(C(=O)O)cc1Cl,,RT-Y188L,nucleotide incorporation / radiometric,>2
CCc1ccc(-n2c(C)nnc2SCC(=O)Nc2ccc(S(N)(=O)=O)cc2Cl)c2c1CCCC2,,RT-Y181C,nucleotide incorporation / radiometric,>1
NCCCCNc1nc(Cc2ccccc2)cc(=O)[nH]1,,RT-K103N,,>14.3
CCOC(=O)C(C)NS(=O)(=O)c1ccc(NC(=O)CSc2nnc(C(F)F)n2-c2ccc(C)c3c2CCCC3)c(Cl)c1,,RT-Y181C,nucleotide incorporation / radiometric,>2
Cc1occc1C(=S)Nc1ccc(Cl)c(C(=O)OCC2CC2)c1,,RT-L100I,nucleotide incorporation / radiometric,>8.33
CC(C)=CCOc1cc(NC(=S)c2ccoc2C)ccc1Cl,,RT-P236L,,0.34
CCN1c2ncc(CCOc3ccc(CC(=O)O)c4ccccc34)cc2C(=O)Nc2c(C)cc(Cl)nc21,,RT-K103N Y181C,nucleotide incorporation / radiometric,1–10
Cc1cc(C)c2ccccc2c1-n1c(SCC(=O)Nc2ccc(S(N)(=O)=O)cc2Cl)nnc1C(F)(F)F,,RT-Y188L,nucleotide incorporation / radiometric,>2
CCN1c2ncc(CCOc3ccc(-c4cc(CC(=O)O)ccc4OC)cc3C)cc2C(=O)N(C)c2cccnc21,IIIB,RT-K103N Y181C,nucleotide incorporation / radiometric,>1
CCN1c2ncc(CCOc3ccc(C(=O)O)c4c3CCCC4)cc2C(=O)N(C)c2ccc(F)nc21,,RT-Y188L,nucleotide incorporation / radiometric,1–10
NS(=O)(=O)c1ccc(NC(=O)CSc2nnc(Br)n2-c2c(Cl)cc(C3CCC3)c3ccccc23)c(Cl)c1,,RT-Y188L,nucleotide incorporation / radiometric,>1
CCN1c2ncc(CCOc3ccc(CC(C)C(=O)O)c4ccccc34)cc2C(=O)N(C)c2ccc(Cl)nc21,,RT-Y188L,nucleotide incorporation / radiometric,>10
Cc1cc(S(N)(=O)=O)ccc1NC(=O)COc1ccccc1C(=O)c1cc(Cl)cc(C#N)c1,NNRTI-resistant,RT-K103N,fluorescence,1.4
CCCCNC(=O)c1ccc(NC(=O)CSc2nnc(Br)n2-c2ccc(CC)c3ccccc23)c(Cl)c1,,RT-Y181C,nucleotide incorporation / radiometric,<1
CCN1c2ncc(CCOc3ccc(/C=C(\C)C(=O)O)c4ccccc34)cc2C(=O)N(C)c2cccnc21,,RT-Y188L,nucleotide incorporation / radiometric,>10
CCN1c2ncc(CCOc3ccc(-c4cc(C(=O)O)on4)cc3C)cc2C(=O)N(C)c2cccnc21,IIIB,RT-K103N Y181C,nucleotide incorporation / radiometric,1
Cc1cc(S(N)(=O)=O)ccc1NC(=O)CSc1nnc(Br)n1-c1ccc(C)c2c1CCCC2,,RT-Y188L,nucleotide incorporation / radiometric,>1
CCN1c2ncc(CCOc3ccc(CC(=O)O)c4c3CCCC4)cc2C(=O)N(C)c2ccc(Cl)nc21,,RT-V106A,nucleotide incorporation / radiometric,1–10
CCc1ccc(-n2c(Br)nnc2SCC(=O)Nc2ccc(C(=O)N3CCC(CN)CC3)cc2Cl)c2ccccc12,,RT-Y188L,nucleotide incorporation / radiometric,>2
C=CCO/N=C/c1cc(NC(=S)c2ccoc2C)ccc1Cl,,RT-P236L,nucleotide incorporation / radiometric,1

7 of the rows above, restated:

{"compound": "CCOC(=O)C(C)NS(=O)(=O)c1ccc(NC(=O)CSc2nnc(C(F)F)n2-c2ccc(C)c3c2CCCC3)c(Cl)c1", "mutations": "RT-Y181C", "read by": "nucleotide incorporation / radiometric", "result": ">2"}
{"compound": "CCN1c2ncc(CCOc3ccc(CC(=O)O)c4ccccc34)cc2C(=O)Nc2c(C)cc(Cl)nc21", "mutations": "RT-K103N Y181C", "read by": "nucleotide incorporation / radiometric", "result": "1–10"}
{"compound": "CCc1ccc(-n2c(Br)nnc2SCC(=O)Nc2ccc(C(=O)O)cc2C)c2ccccc12", "mutations": "RT-Y188L", "read by": "nucleotide incorporation / radiometric", "result": ">2"}
{"compound": "Cc1cc(C)cc(S(=O)(=O)c2c(C(N)=O)[nH]c3ccc(Cl)cc23)c1", "mutations": "RT-L100I", "read by": "nucleotide incorporation / radiometric", "result": "20"}
{"compound": "CCN1c2ncc(CCOc3ccc(CC(C)C(=O)O)c4ccccc34)cc2C(=O)N(C)c2ccc(Cl)nc21", "mutations": "RT-Y188L", "read by": "nucleotide incorporation / radiometric", "result": ">10"}
{"compound": "CCc1ccc(-n2c(SCC(=O)Nc3ccc(S(N)(=O)=O)cc3Cl)nnc2C(F)F)c2c1CCCC2", "mutations": "RT-Y188L", "read by": "nucleotide incorporation / radiometric", "result": ">2"}
{"compound": "CCc1cc(CCc2nc3ccccc3o2)c(=O)[nH]c1C", "mutations": "RT-K103N Y188C", "read by": "nucleotide incorporation", "result": ">1000"}

Two numbers with a dash give a range or band. Rows are shuffled and stem from different studies. Fold resistance has wild type as its base.